The list shows a part of the results, in another mix than the full data. The source made the active and inactive calls.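 The calls were made as follows: active = compounds giving 40% or more inhibition at 20 µM in any one of the three replicates; inactive = the rest.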

Sequences of proteins named here, by UniProt entry; tags and fusion partners are left off. A change or cut given only in a name is not applied to a line headed by its entry.
UniProt P12295: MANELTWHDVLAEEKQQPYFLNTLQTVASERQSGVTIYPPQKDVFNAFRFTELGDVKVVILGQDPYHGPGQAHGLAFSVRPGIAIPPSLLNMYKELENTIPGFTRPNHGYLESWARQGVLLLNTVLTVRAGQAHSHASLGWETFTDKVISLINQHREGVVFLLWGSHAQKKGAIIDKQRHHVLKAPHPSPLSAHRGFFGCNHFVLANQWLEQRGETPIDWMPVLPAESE

We go through one compound from PubChem BioAssay AID504715 (Sanford-Burnham Center for Chemical Genomics, 2011).

In this assay the target is Uracil-DNA glycosylase (Escherichia coli (strain K12)) (UniProt P12295). The assay can be described thus: E. coli UDG inhibitors, confirmation, counter-screen for APOBEC3G inhibitor project, biochemical, single concentration, fluorescence, FAM/TAMRA oligo (AID 504715).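 Also: plate controls were DMSO wells with UDG and oligo for no effect and DMSO wells lacking both for full effect; inhibitors lower the FAM signal released by uracil excision and alkaline cleavage.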 The conditions noted are these: UDG counterscreen, at 20 µM, stronger effect = higher value. A general note: Counterscreens check selectivity or assay interference.

On to `O=P(Nc1nccs1)(c1ccccc1)c1nc2ccccc2s1` (stereo unspecified), for which the inhibition – broadly, the relative decrease from the control value, in per cent – is inactive: -4.26%.
